Assay results from paper PMC9797896 (Medicinal Chemistry Research, 2022).

Columns and labels:
Assay in all cases: cell-based
[1] = molecular target: SARS-CoV-2 RdRp (nsp12/7/8 complex) (Severe acute respiratory syndrome coronavirus 2, UniProt P0DTD1, P4715L); details: Inhibition of SARS-CoV-2 RdRp in vitro (EC50) Nsp12
[2] = molecular target: SARS-CoV-2 RdRp in the presence of ExoN (nsp12/7/8 + nsp14/10 complex) (Severe acute respiratory syndrome coronavirus 2, UniProt P0DTD1, I5967V/P4715L); details: Inhibition of SARS-CoV-2 RdRp in vitro (EC50) Nsp12 + Nsp14
[3] = molecular target: SARS-CoV-2 RdRp in the presence of mutated ExoN (nsp12/7/8 + nsp14mutant/10 complex, D90A/E92A) (Severe acute respiratory syndrome coronavirus 2, UniProt P0DTD1, P4715L)

O=c1[nH]cnc2c([C@@H]3N[C@H](CO)[C@@H](O)[C@H]3O)c[nH]c12 [Forodesine, forodesine]
EC50 [1]: ~230 nM and 230 nM
EC50 [2]: ~330 nM and 330 nM
EC50 [3]: 270 ± 30 nM

Where “and” joins values, the source holds several entries; their conditions need not be identical. Identical values can stand only once.
